One compound from patent US9771361B2, “Inhibitors of influenza viruses replication” (priority 2013, dated 2017) can be followed below.

Where “and” joins values, the source holds several entries; their conditions need not be identical. Identical values can stand only once. No dose or concentration is given here for some results.

The subject of this data set is influenza A/Wisconsin/67/2005 (H3N2) challenge strain virus. Also on record: species or system humans. Particulars: human, in vivo.

`O=C(O)[C@H]1C2CCC(CC2)C1Nc1nc(-c2c[nH]c3ncc(F)cc23)ncc1F` (stereo partly shown) [Compound (1)]: the “Serology, Sero-conversion n/N” value is 11/16 and 9/19 and 13/19 and 12/18 and 45/72.
